Holding throughout (type): functional
Assay [1] addresses Solute carrier family 2, facilitated glucose transporter member 1 (Homo sapiens) (UniProt P11166). As to the kind of experiment: ST_JUDE_LEISH: Cytotoxicity at 2uM final concentration against transgenic Leishmania Mexicana promastigotes LmGLUT1 that are glucose transport deficient and complemented with the human glucose transporter GLUT1. Activity is measured by DNA content using SYBR green in vitro.

By UniProt entry, the sequences of proteins in these tests, tags left out. Residues count along the entry.
UniProt P11166, whole entry: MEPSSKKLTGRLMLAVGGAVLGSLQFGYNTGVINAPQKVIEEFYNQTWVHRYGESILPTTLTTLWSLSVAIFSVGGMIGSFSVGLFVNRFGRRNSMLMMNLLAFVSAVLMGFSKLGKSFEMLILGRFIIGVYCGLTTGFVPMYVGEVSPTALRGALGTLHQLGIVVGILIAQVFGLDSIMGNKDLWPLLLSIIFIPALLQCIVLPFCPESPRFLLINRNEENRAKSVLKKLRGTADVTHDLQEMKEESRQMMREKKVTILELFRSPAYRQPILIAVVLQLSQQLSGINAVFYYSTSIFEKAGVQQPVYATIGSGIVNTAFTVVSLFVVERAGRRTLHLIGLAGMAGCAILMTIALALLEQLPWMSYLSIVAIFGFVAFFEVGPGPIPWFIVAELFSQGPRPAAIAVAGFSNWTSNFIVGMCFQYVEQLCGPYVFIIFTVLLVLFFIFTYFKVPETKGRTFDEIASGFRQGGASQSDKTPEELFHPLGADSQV
UniProt O97467, 1-504: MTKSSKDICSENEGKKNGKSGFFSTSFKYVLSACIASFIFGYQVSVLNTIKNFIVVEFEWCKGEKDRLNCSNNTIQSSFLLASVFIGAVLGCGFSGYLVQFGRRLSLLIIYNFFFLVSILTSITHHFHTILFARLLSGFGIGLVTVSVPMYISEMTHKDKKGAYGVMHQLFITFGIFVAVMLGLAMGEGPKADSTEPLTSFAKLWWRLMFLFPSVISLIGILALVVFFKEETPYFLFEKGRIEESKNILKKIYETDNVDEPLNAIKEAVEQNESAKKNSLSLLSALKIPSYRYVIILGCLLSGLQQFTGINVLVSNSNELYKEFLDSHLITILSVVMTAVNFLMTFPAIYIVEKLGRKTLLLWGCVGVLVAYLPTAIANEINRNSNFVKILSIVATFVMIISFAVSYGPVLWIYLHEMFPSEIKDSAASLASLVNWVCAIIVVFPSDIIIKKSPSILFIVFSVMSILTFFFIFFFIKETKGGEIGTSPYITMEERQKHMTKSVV
UniProt O61059, 1-567: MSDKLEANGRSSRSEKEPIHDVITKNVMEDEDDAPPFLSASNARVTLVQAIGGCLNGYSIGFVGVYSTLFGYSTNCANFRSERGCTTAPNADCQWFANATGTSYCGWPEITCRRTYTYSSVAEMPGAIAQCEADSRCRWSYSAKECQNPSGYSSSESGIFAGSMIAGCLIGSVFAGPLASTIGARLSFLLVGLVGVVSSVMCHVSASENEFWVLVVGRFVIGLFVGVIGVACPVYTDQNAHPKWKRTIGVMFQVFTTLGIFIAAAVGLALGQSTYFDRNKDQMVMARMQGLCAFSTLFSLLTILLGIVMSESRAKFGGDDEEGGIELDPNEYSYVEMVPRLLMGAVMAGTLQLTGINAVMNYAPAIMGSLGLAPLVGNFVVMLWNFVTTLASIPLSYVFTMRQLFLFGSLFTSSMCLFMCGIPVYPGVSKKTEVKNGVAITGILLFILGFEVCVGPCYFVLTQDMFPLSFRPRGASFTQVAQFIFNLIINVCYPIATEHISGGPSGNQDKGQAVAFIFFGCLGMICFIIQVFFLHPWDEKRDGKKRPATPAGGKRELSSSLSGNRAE

Assay [2] addresses Hexose transporter 1 (Plasmodium falciparum) (UniProt O97467). As to the kind of experiment: ST_JUDE_LEISH: Cytotoxicity at 2uM final concentration against transgenic Leishmania Mexicana promastigotes LmPfHT that are glucose transport deficient and complemented with the Plasmodium falciparum hexose transporter. Activity is measured by DNA content using SYBR green in vitro.
The target of assay [3] is Glucose transporter (Leishmania mexicana) (UniProt O61059). As to the kind of experiment: ST_JUDE_LEISH: Cytotoxicity at 2uM final concentration against transgenic Leishmania Mexicana promastigotes LmGT2 that are glucose transport deficient and complemented with the L. Mexicana glucose transporter 2. Activity is measured by DNA content using SYBR green in vitro.

Two compounds from ChEMBL document CHEMBL3433997, “St. Jude Leishmania screening dataset” (2016) can be followed below.

Structures are written as SMILES. The entries are a selection whose mix differs from that of the whole data set.

In general, inhibition refers to the relative decrease from the control value, in per cent. Take `CCN1CCCC(OC(=O)C(O)(c2ccc3c(c2)OCO3)c2ccc3c(c2)OCO3)C1` (stereo unspecified): the inhibition in assay [1] was -0.66%; in assay [2], 0.99%; in assay [3], 1.94%.

For the compound `CCN1CCCC1COC(=O)C(O)(c1ccc2c(c1)OCO2)c1ccc2c(c1)OCO2` (stereo unspecified), the inhibition in assay [1] is 8.96%; in assay [2], 6.38%; in assay [3], 6.25%.
